Test system: HIV-1 (strain IIIB)
Test: Anti-HIV-1 (strain IIIB) activity in MT-4 cells, MTT assay
Format: cell-based
Details: ratio CC50/EC50, MT-4 cells
Description: The anti-HIV-1 (strain IIIB) activity evaluation in MT-4 cells was conducted using an optimized MTT assay. The cell lines were obtained from the laboratory (Prof. Erik De Clercq, Rega Institute for Medical Research, KU Leuven, Herestraat 49, Leuven, Belgium). Compounds were serially diluted (5-fold increments, starting from 10× concentration) and dispensed into 96-well plates (25 µL/well) via an automated Biomek 3000 workstation (Beckman Instruments, Fullerton, CA, USA). Parallel experimental groups included virus-infected (50 µL HIV inoculum, 100–300 TCID50) and mock-infected controls (50 µL culture medium). MT-4 cells were centrifuged (220× g, 5 min), resuspended to 6 × 10⁵ cells/mL, and seeded (50 µL/well). After a 5-day incubation, cell viability was quantified by measuring mitochondrial dehydrogenase-mediated MTT-to-formazan conversion using dual-wavelength spectrophotometry (540 nm primary, 690 nm reference). The 50% cytotoxic concentration (CC50) was calculated from triplicate median absorbance values, representing the compound concentration reducing mock-infected cell viability by 50%.

Row | Structure (SMILES) | SI, selectivity index
1 | O=C1Nc2ccc(Cl)cc2[C@@](C#CC2CC2)(C(F)(F)F)O1 [EFV, reference compound] | >1538
2 | Cc1ccnc2c1NC(=O)c1cccnc1N2C1CC1 [NVP, reference compound] | >80

From paper PMC12073785, “Design, Synthesis and Biological Evaluation of 3-Hydrazonoindolin-2-one Derivatives as Novel HIV-1 RNase H Inhibitors” (Molecules, 2025)
